{
  "source": "patent US10793591B2",
  "about": "“Substituted nucleosides, nucleotides and analogs thereof” (priority 2012, dated 2020)",
  "key": {"[1]": {"tested_on": "HCV genotype 1b HCV replicon harbored in Huh7 cells", "assay": "Combination testing in HCV replicon (MacSynergy II)", "assay_type": "cell-based"}, "NS5B570-Con1 (Delta-21)": {"target": "NS5B570-Con1 (Delta-21) (Hepatitis C virus genotype 1b (isolate Con1) (HCV), UniProt Q9WMX2)", "assay": "NS5B inhibition assay", "conditions": "50 nM NS5B570-Con1, cIRES RNA template, 2 h at 37° C."}, "[2]": {"tested_on": "Huh-7 cells containing the self-replicating, subgenomic HCV replicon", "assay": "HCV replicon assay (luciferase reporter)", "assay_type": "cell-based", "conditions": "72 h, Bright-Glo luciferase"}},
  "data": [
    {"smiles": "CS(=O)(=O)Nc1ccc2c(c1)S(=O)(=O)N=C(C1=C(O)[C@@H]3[C@H]4CC[C@H](C4)[C@@H]3N(Cc3ccc(F)cc3)C1=O)N2", "values": [
      {"measurement": "Synergy Volume", "setting": "[1]; combination with compound 18, 72 h, MacSynergy II, Bliss independence model", "value": 29.46, "unit": "μM^2%"},
      {"measurement": "Determination", "setting": "[1]; combination with compound 18, class from synergy volume", "value": "Synergistic (volumes in the 25-100 range indicate synergistic behavior)"}
    ]},
    {"smiles": "C#C[C@]1(F)[C@H](n2ccc(=O)[nH]c2=O)O[C@](F)(COP(=O)(O)OP(=O)(O)OP(=O)(O)O)[C@H]1O", "values": [
      {"measurement": "IC50", "setting": "NS5B570-Con1 (Delta-21)", "value": "< 1000", "unit": "nM"}
    ]},
    {"smiles": "CC(C)OC(=O)[C@H](C)NP(=S)(OC[C@@]1(F)O[C@@H](n2ccc(=O)[nH]c2=O)[C@](C)(O)[C@@H]1O)Oc1ccccc1", "note": "(stereo partly shown)", "values": [
      {"measurement": "EC50", "setting": "[2]", "value": "1000 to 10000", "unit": "nM"}
    ]}
  ]
}
